The record followed here is US6548552B1 (priority 1997, dated 2003).

This test deals with TSST-1 production by S. aureus. As to conditions: each agent at the concentration of b78: ascorbic acid 0.06%, propyl gallate 0.1%, delta-tocopherol 2.0%, cysteine 0.1%, N-acetyl-cysteine 0.2%, thiodipropionic acid 0.02%, bisulfites 0.05%, caffeine 0.025%, glutathione 0.2%.
Regarding delta-tocopherol, the “effect on bacterial toxin production (in words)” value (“effect” below) is “reduced toxin production”.
With beta-mercaptoethanol, the “effect” value is on record as “reduced toxin production”.
Take thiodipropionic acid: the “effect” value is “reduced toxin production”.
On to potassium bisulfite, for which the “effect” value is given as “exception”.
On to sodium bisulfite, for which the “effect” value is “reduced toxin production”.
